Data reported in PMC5517516.

System: CC(=O)N[C@H]1[C@H]([C@H](O)[C@H](O)CO)O[C@](OP(=O)(O)OC[C@H]2O[C@@H](n3ccc(N)nc3=O)[C@H](O)[C@@H]2O)(C(=O)O)C[C@@H]1O
Assay: purified protein
Settings: 0.3 mg/mL colominic acid acceptor, 50 mM HEPES pH 7.0, 50 mM KCl, 20 mM MgCl2, 37 °C

Substance	Km	kcat	kcat/Km
MhPST (Δ20MhPST) (Mannheimia haemolytica; K68A/K69A/R259A)	2080 ± 270 µM	0.12 s⁻¹	56 M⁻¹ s⁻¹
MhPST (Δ20MhPST) (Mannheimia haemolytica; K293A/K68A/K69A)	260 ± 40 µM	0.14 s⁻¹	515 M⁻¹ s⁻¹
MhPST (Δ20MhPST) (Mannheimia haemolytica; K68A/K69A)	600 ± 30 µM	70.3 s⁻¹	117000 M⁻¹ s⁻¹
MhPST (Δ20MhPST) (Mannheimia haemolytica; K68A/K69A/Q44A)	340 ± 30 µM	1.16 s⁻¹	3400 M⁻¹ s⁻¹
MhPST (Δ20MhPST) (Mannheimia haemolytica; E152A/K68A/K69A)	1080 ± 50 µM	0.39 s⁻¹	359 M⁻¹ s⁻¹
MhPST (Δ20MhPST) (Mannheimia haemolytica; H291A/K68A/K69A)	4360 ± 240 µM	1.83 s⁻¹	420 M⁻¹ s⁻¹
MhPST (Δ20MhPST) (Mannheimia haemolytica; K68A/K69A/Q41A)	960 ± 130 µM	2.23 s⁻¹	2320 M⁻¹ s⁻¹
